Test results reported in publication PMC8166163.

Target: HIV-1 NL4.3 envelope glycoprotein with truncated cytoplasmic tail (ΔCT Env) (HIV-1 NL4.3)

## soluble CD4 (from UniProt P01730 26-396) (receptor)
  neutralisation of HIV-1 NL4.3 ΔCT virus by sCD4, IC50: > 50 µg/mL
